Anti-infective test results gathered from many reports (values: NIAID ChemDB through PubChem).

Common to all: growth or infection tests; species: Mycobacterium tuberculosis

MIC bound comes from a single tested concentration.

SMILES | tested at | cells | conditions | method | strain or isolate | read-out | result
NC(=O)c1cnccn1 |  |  |  |  | Isolate K10437 | MIC | >500 µg/mL
CCCCOc1ccc(NC(=S)Nc2ccc(N(C)C)cc2)cc1 |  |  |  |  | H37RV #80 | MIC | 2 µg/mL
NNC(=O)c1ccncc1 |  |  |  | resazurin | 18b | MIC | 0.06 µg/mL
Cc1cc(C)n2[nH]c(=O)cc2n1 |  |  |  | BACTEC | H37Rv | MIC bound | >12.5 µg/mL
COc1ccc2oc(=O)n(-c3ccc(C(F)(F)F)cc3)c(=S)c2c1 |  |  | 21 d |  | My 331/88 | MIC | 32 µM
CO[C@H]1/C=C/O[C@@]2(C)Oc3c(C)c(O)c4c(O)c(c(/C=N/N5CCN(C)CC5)c(O)c4c3C2=O)NC(=O)/C(C)=C\C=C\[C@H](C)[C@H](O)[C@@H](C)[C@@H](O)[C@@H](C)[C@H](OC(C)=O)[C@@H]1C |  |  |  | turbidity | H37Ra | MIC90 | 0.1 µM
CC(C)(C)C1CCc2onc(C(=O)N3CCCCC3)c2C1 |  |  |  | resazurin | 18b | MIC | >16 µg/mL
Cn1c(=O)c2[nH]c(SSc3nc4c([nH]3)c(=O)n(C)c(=O)n4C)nc2n(C)c1=O | 6.25 µg/mL |  |  | BACTEC | H37Rv | inhibition | 1%
CCOC(=O)N1CCN(c2cc(-c3ccccc3)c3ccc(Cl)nc3n2)CC1 | 12.5 µg/mL |  |  |  | H37Rv | inhibition | 71%
Cc1cc(=O)c(C)c2sc3ccccc3nc1-2 |  |  |  | BACTEC | H37Rv | MIC | 3.13 µg/mL
COc1ccc2oc(=O)n(-c3ccccc3)c(=S)c2c1 |  |  | 14 d |  | My 331/88 | MIC | 16 µM
Nc1ccc2c(-c3ccccc3)cc(=O)[nH]c2n1 |  |  |  |  | H37Rv | EC50 | >12.5 µg/mL
CC(=O)c1c(O)c(C)c(O)c2c1OC1=CC(=O)C(C(C)=O)C(=O)C12C |  |  |  | BACTEC | H37Rv | MIC | ≥12.5 µg/mL
COc1cc(/C=N/NC(=O)COc2ccc(NC(C)=O)cc2)cc(OC)c1OC | 12.5 µg/mL |  |  |  | H37Rv | inhibition | 1%
CC(C)C[C@@H]1NC(=O)[C@H](Cc2c[nH]c3ccccc23)NC(=O)[C@@H](CCCN=C(N)N)NC(=O)[C@H](CC(N)=O)NC(=O)[C@H](C(C)C)NC(=O)[C@@H](CC(C)C)NC1=O |  |  |  | turbidity | CDC1551 | EC50 | 0.71 µM
CC1(C)S[C@@H]2[C@H](NC(=O)[C@H](N)c3ccccc3)C(=O)N2[C@H]1C(=O)O |  |  |  |  | WLM | MIC | >92 µM
Fc1ccc2oc(=S)n(-c3cccc(Cl)c3)c(=S)c2c1 |  |  | 14 d |  | My 331/88 | MIC | 2 µM
CC(NNC(=O)c1ccncc1)c1ccc(F)cc1 |  |  |  |  | Ethambutol-resistant | MIC | ≤0.78 µg/mL
CCCCCC(O)C/C=C\CCCCCCCC(=O)NN=C(C)C |  |  |  |  |  | MIC | >200 µg/mL
CC1=CC(C)(C)N=C2SC(=O)c3nc4ccccc4c(=O)n3N12 |  |  |  | BACTEC | H37Rv | MIC bound | >12.5 µg/mL
O=C(NNC(=O)c1ccc(Cl)cc1)c1ccc(Cl)cc1 |  |  |  |  |  | MIC | >200 µg/mL
CCCOC(=O)C1=C(C)OC23OC(N)=C(C#N)C12C(=O)c1ccccc13 |  |  |  | resazurin | Clinical isolate | MIC | 16 µg/mL
NNC(=O)c1ccncc1 |  |  |  |  | Isolate G1 | MIC | 0.031 µg/mL
COC(=O)Cn1ccc2ccc(S(=O)(=O)N3CCCCC3)cc21 |  |  |  | resazurin | 18b | MIC | 4 µg/mL
NC(=S)N/N=C/c1ccc([N+](=O)[O-])o1 |  |  |  | resazurin | H37Rv | MIC bound | >6.25 µg/mL
CC1(C)CC(=O)C2=C(C1)C1=Nc3ccccc3C1=C2 |  |  |  | resazurin | Clinical isolate | MIC | 8 µg/mL
COc1ccc(C)cc1N=NC1C(=O)N(C(=O)CC(=O)Nc2ccccc2OC)N=C1c1ccccc1 |  |  |  | BACTEC | H37Rv | MIC | ≥12.8 µg/mL
NC[C@@H]1O[C@H](O[C@H]2[C@@H](O)[C@H](O[C@@H]3[C@@H](O)[C@H](N)C[C@H](N)[C@H]3O[C@H]3O[C@H](CO)[C@@H](O)[C@H](O)[C@H]3N)O[C@@H]2CO)[C@H](N)[C@@H](O)[C@@H]1O |  |  |  |  | MTB14 (S) | MIC | 1.5 µg/mL
COc1ccc(C(=O)Nc2ccc(C(=O)NN3C(=O)CSC3c3ccc([N+](=O)[O-])o3)cc2)cc1 | 6.25 µg/mL |  |  |  | H37Rv | inhibition | 90%
O=C1c2ccc(Cl)cc2-n2c1nc1ccccc1c2=O |  |  |  |  | H37Rv | MIC | 0.13 µg/mL
CC(C)C[C@@H]1NC(=O)[C@H](Cc2c[nH]c3ccccc23)NC(=O)[C@H](CCCCN)NC(=O)[C@H](CC(N)=O)NC(=O)[C@H](C(C)C)NC(=O)[C@@H](CC(C)C)NC1=O |  |  |  | turbidity | CDC1551 | MIC90 | >30 µM
O=C(NNCc1ccccc1F)c1ccncc1 |  |  |  |  | H37Rv (isoniazid-resistant) | MIC | >32 µg/mL
O=C(/C=C/c1ccccc1)NNC(=O)/C=C/c1ccccc1 |  |  |  |  |  | MIC | >200 µg/mL
CC(NNC(=O)c1ccncc1)c1ccc(Cl)c(Cl)c1 |  |  |  |  | H37Rv (ethambutol-resistant) | MIC | ≤0.49 µg/mL
CC(CC#N)NC(=O)C1CCC(N)=N1.Cl |  |  |  | BACTEC | H37Rv | MIC bound | >12.5 µg/mL
COc1ccc2oc(=O)n(-c3ccc(Cl)cc3)c(=S)c2c1 |  |  | 14 d |  | My 331/88 | MIC | 8 µM
CCCCCCCCc1ccc2c(c1)C(=O)c1nc3ccncc3c(=O)n1-2 |  |  |  |  | TN2050RFLF:CO (MDR) | MIC | ≤0.015 µg/mL
CC(=O)NN1C2=CCCCC2=NC(C#N)=C1N | 12.5 µg/mL |  |  | BACTEC | H37Rv | inhibition | 13%
CC(=O)Nc1ccc2c(-c3ccccc3)cc(=O)[nH]c2n1 | 12.5 µg/mL |  |  |  | H37Rv | inhibition | 2%
COc1cc(C2SC(C)C(=O)N2NC(=O)COc2ccc(NC(C)=O)cc2)cc(OC)c1OC |  |  |  |  | H37Rv | EC50 | >12.5 µg/mL
CC(C)C[C@@H]1NC(=O)[C@H](Cc2c[nH]c3ccccc23)NC(=O)[C@@H](CCCCN)NC(=O)[C@H](CC(N)=O)NC(=O)[C@H](C(C)C)NC(=O)[C@@H](CC(C)C)NC1=O |  |  |  | turbidity | CDC1551 | MIC90 | 0.99 µM
Cc1onc(-c2ccccc2Cl)c1C(=O)O |  |  |  | resazurin | H37Rv | MIC bound | >6.25 µg/mL
CCOC(=O)N1CCN(c2cc(-c3ccccc3)c3ccc(N)nc3n2)CC1 | 12.5 µg/mL |  |  |  | H37Rv | inhibition | 70%
COc1ccc2oc(=S)n(-c3ccc(F)cc3)c(=S)c2c1 |  |  | 14 d |  | My 331/88 | MIC | 16 µM
O=C(NNCc1ccccc1)c1ccncc1 |  |  |  |  | H37Rv (ethionamide-resistant) | MIC | >31.25 µg/mL
NNC(=O)CNC(=O)Cc1ccccc1 |  |  |  | BACTEC | H37Rv | MIC bound | >12.5 µg/mL
O=C1c2ccc(Cl)cc2-n2c1nc1ncccc1c2=O |  |  |  |  | H37Rv | MIC | 0.13 µg/mL
CCOc1ccc(NC(=S)Nc2ccc(OCC(C)C)cc2)cc1 |  |  |  |  | H37RV #80 | MIC | 2 µg/mL
CCOC(=O)c1ccc2c(c1)C(=O)c1nc3c(I)cc(I)cc3c(=O)n1-2 |  |  |  |  | H37Rv | MIC | >4 µg/mL
CC(=O)Nc1ccc(OCC(=O)N/N=C/C=C/c2ccccc2)cc1 |  |  |  |  | H37Rv | EC50 | >12.5 µg/mL
CCOc1cc(C2SCC(=O)N2NC(=O)c2ccc(NC(=O)c3ccc(OC)cc3)cc2)ccc1O | 6.25 µg/mL |  |  |  | H37Rv | inhibition | 0%
COC(=O)c1nc(N)[nH]c(=O)c1CCCCCc1c(C(=O)OC)nc(N)[nH]c1=O | 12.5 µg/mL |  |  | BACTEC | H37Rv | inhibition | 0%
CC(=O)Nc1ccc(OCC(=O)NN2C(=O)CSC2c2ccc(N(C)C)cc2)cc1 | 12.5 µg/mL |  |  |  | H37Rv | inhibition | 0%
CC(C)C[C@@H]1NC(=O)[C@H](Cc2c[nH]c3ccccc23)NC(=O)[C@@H](CCCN)NC(=O)[C@H](CC(N)=O)NC(=O)[C@H](C(C)C)NC(=O)[C@@H](CC(C)C)NC1=O |  |  |  | turbidity | CDC1551 | EC50 | 1.82 µM
O=C1C2=C(c3ccccc31)C(c1ccccc1Cl)NC(=S)N2 |  |  |  | BACTEC | H37Rv | MIC bound | >12.5 µg/mL
O=C1c2cc([N+](=O)[O-])ccc2-n2c1nc1ncccc1c2=O |  |  |  |  | H37Rv | MIC | 0.25 µg/mL
CC(=O)N1N=C2C3CCN(CC3)C2C1c1cccc2ccccc12 |  |  |  | resazurin | Clinical isolate | MIC | 16 µg/mL
CC(=O)NC[C@H]1CN(c2ccc(N3CCN(Cc4ccc([N+](=O)[O-])s4)CC3)c(F)c2)C(=O)O1 |  |  |  |  | 16 isolates (MDR) | MIC90 | 1 µg/mL
O=C1c2c(cccc2C(F)(F)F)-n2c1nc1ncccc1c2=O |  |  |  |  | H37Rv | MIC | >8 µg/mL
Cl.Cl.Cl.c1ccc(-c2cc(N3CCNCC3)nc3ncccc23)cc1 |  |  |  |  | H37Rv | EC50 | >12.5 µg/mL
COc1ccc2c(c1)C(=O)c1nc3ccccc3c(=O)n1-2 |  |  |  |  | H37Rv | MIC | 0.5 µg/mL
CN[C@@H]1[C@H](O[C@H]2[C@H](O[C@H]3[C@H](O)[C@@H](O)[C@H](N=C(N)N)[C@@H](O)[C@@H]3N=C(N)N)O[C@@H](C)[C@]2(O)C=O)O[C@@H](CO)[C@H](O)[C@H]1O |  |  |  |  | MTB24 (S) | MIC | 0.3 µg/mL
CC(=O)NCC(=O)NN |  |  |  |  |  | MIC | >40 µg/mL
CC(=O)Nc1ccc(OCC(=O)NN2C(=O)C(C)SC2c2ccccc2)cc1 |  |  |  |  | H37Rv | EC50 | >12.5 µg/mL
Cc1cc(=O)n2c(nc3cc([N+](=O)[O-])ccc32)s1 | 6.25 µg/mL |  |  | resazurin | H37Rv | inhibition | -16%
Cc1ccc2oc(=O)n(-c3ccc(Br)cc3)c(=S)c2c1 |  |  | 14 d |  | My 331/88 | MIC | 0.5 µM
CC(C)N=c1cc2n(-c3ccc(Cl)cc3)c3ccccc3nc-2cc1Nc1ccc(Cl)cc1 |  |  |  | broth dilution / resazurin | MDR16 | MIC | 1 µg/mL
CC1(C)C2CCC(=O)OC1CC2 |  |  |  | BACTEC | H37Rv | MIC | ≥12.5 µg/mL
COc1ccc(C(=O)Nc2ccc(C(=O)NN3C(=O)CSC3c3ccc(F)cc3)cc2)cc1 | 6.25 µg/mL |  |  |  | H37Rv | inhibition | 98%
N#CC(C#N)=c1c2nsnc2c(=C(C#N)C#N)c2nsnc12 | 12.5 µg/mL |  |  | BACTEC | H37Rv | inhibition | 99%
CO[C@H]1/C=C/O[C@@]2(C)Oc3c(C)c(O)c4c(O)c(c(/C=N/N5CCN(C)CC5)c(O)c4c3C2=O)NC(=O)/C(C)=C\C=C\[C@H](C)[C@H](O)[C@@H](C)[C@@H](O)[C@@H](C)[C@H](OC(C)=O)[C@@H]1C |  |  |  |  | TN807 | MIC | >32 µg/mL
CCN(CC)CCCN=c1cc2n(-c3ccc(Cl)c(Cl)c3)c3ccccc3nc-2cc1Nc1ccc(Cl)c(Cl)c1 |  |  | multidrug-resistant |  | 29 | MIC | ≤0.06 µg/mL
Nc1ccc2c(-c3ccccc3)cc(=S)[nH]c2n1 | 12.5 µg/mL |  |  |  | H37Rv | inhibition | 0%
Fc1cccc(-n2c(=S)oc3ccc(Br)cc3c2=S)c1 |  |  | 21 d |  | My 331/88 | MIC | 4 µM
c1ccc(-c2cc(N3CCNCC3)nc3nc(N4CCNCC4)ccc23)cc1 | 12.5 µg/mL |  |  |  | H37Rv | inhibition | 10%
COC(=O)C1(C)Cc2ccccc2C(=O)O1 |  |  |  | resazurin | Clinical isolate | MIC | 4 µg/mL
O=C(NNCc1cccc(C(F)(F)F)c1)c1ccncc1 |  | Macrophages | inside macrophages | colony count | Erdman | EC90 | 0.005 µg/mL
CCN(CC)CCOc1ccc(NC(=S)Nc2ccc(OCC(C)C)cc2)cc1 |  |  |  |  | H37RV #301 | MIC | 31.3 µg/mL
COc1ccc(-c2coc3c4c(ccc3c2=O)OC(C)(C)C=C4)cc1OC |  |  |  | BACTEC | H37Rv | MIC bound | >12.5 µg/mL
COc1ccc2c(c1)/C(=N/OC(=O)c1ccc(OC)c([N+](=O)[O-])c1)CCC2 |  |  |  | resazurin | Clinical isolate | MIC | 2 µg/mL
Cc1ccc(C)c(NC(=O)C(=O)Nn2c(=S)[nH]c3ccccc3c2=O)c1 | 12.5 µg/mL |  |  | BACTEC | H37Rv | inhibition | -9%
CC(NNC(=O)c1ccncc1)c1cccc(C(F)(F)F)c1 |  |  |  |  | Rifampicin-resistant | MBC | 12.5 µg/mL
Cc1cn2c(nc1=O)O[C@@H]1C[C@H]2O[C@@H]1CO |  |  |  | BACTEC | H37Rv | MIC bound | >12.5 µg/mL
NNC(=O)c1ccccc1N |  |  |  |  |  | MIC | 200 µg/mL
O=C(O)c1ccccc1C(=O)NNC(=O)c1ccccc1C(=O)O |  |  |  | BACTEC | H37Rv | MIC bound | >12.5 µg/mL
COc1ccc(C(=O)Nc2ccc(C(=O)N/N=C/c3ccc(Br)cc3)cc2)cc1 | 6.25 µg/mL |  |  |  | H37Rv | inhibition | 0%

A second listing of 4 rows from above:

SMILES	tested at	cells	conditions	method	strain or isolate	read-out	result
CC(=O)Nc1ccc(OCC(=O)NN2C(=O)C(C)SC2c2ccccc2)cc1					H37Rv	EC50	>12.5 µg/mL
CCCOC(=O)C1=C(C)OC23OC(N)=C(C#N)C12C(=O)c1ccccc13				resazurin	Clinical isolate	MIC	16 µg/mL
O=C(O)c1ccccc1C(=O)NNC(=O)c1ccccc1C(=O)O				BACTEC	H37Rv	MIC bound	>12.5 µg/mL
CC(C)C[C@@H]1NC(=O)[C@H](Cc2c[nH]c3ccccc23)NC(=O)[C@@H](CCCN)NC(=O)[C@H](CC(N)=O)NC(=O)[C@H](C(C)C)NC(=O)[C@@H](CC(C)C)NC1=O				turbidity	CDC1551	EC50	1.82 µM

ECn: concentration that inhibits the pathogen or its effect by n%. Neighbouring rows are from separate reports. Blank or dashed fields: not listed here. Inhibition is in % at the dose shown (toxicity tests: loss of growth or viability). MIC50, MIC90 and the like: level of inhibition, or share of isolates inhibited.